Experimental data as given in patent publication US20140107015A1, “PHARAMACEUTICAL COMPOSITION FOR PREVENTING OR TREATING HUMAN IMMUNODEFICIENCY VIRUS” (priority 2012, published 2014).

What was measured:
[1] = target: HIV-1 reverse transcriptase (UniProt P04585); settings: mean of HIV-1RF and HIV-1IIIB
[2] = test system: C8166 cell lines infected with HIV-1IIIB; settings: 0.5 mg/ml; 48 hours after HIV-1IIIB infection; MTT; untreated cells = 100%
[3] = target: T1, HIV-1 reverse transcriptase (Human immunodeficiency virus type 1 group M subtype B, UniProt P05959); assay type: biochemical; settings: 0.05 mg/ml and 0.1 mg/ml
T1 construct: endogenous in cells; host or cells: C8166 and CEM-SS cells infected with HIV-1RF (lysates)

| Substance | IC50 (RT inhibition) [1] | cell viability of HIV-1-infected C8166 cells [2] | reverse transcriptase activity at low concentrations [3] |
| --- | --- | --- | --- |
| Chitosan oligomer-(Threonine-Tyrosine) [COS-TY] | 192 µg/mL |  |  |
| Chitosan oligomer-Aspartic acid [COS-D] | 213 µg/mL |  |  |
| Chitosan oligomer-Glutamic acid [COS-E] |  | 81.3% |  |
| Chitosan oligomer-Leucine [COS-L] |  | 70.4% |  |
| Chitosan oligomer-Tyrosine [COS-Y] | 213 µg/mL |  | inhibited even at the above low concentrations |
